For this experiment, the target named is T1, recombinant HCV E2 envelope protein produced in CHO cells (E2-CHO) (hepatitis C virus, UniProt P26664 384-715, limits assumed).
T1 construct: also called CHO-E2; recombinant E2
As to the kind of experiment: western blot with E2.

The source of these data is US7097987 (Novartis, dated 2006).

B1: protein containing the mouse EC2 loop of CD81 (other)
chain: FVNKDQIAKDVKQFYDQALQQAVMDDDANNAKAVVKTFHETLNCCGSNALTTLTTTILRNTLCPSGGNILTPLLQQDCHQKIDELFSGK
notes: not shown: fusion partner or tag of the mouse EC2 construct is not described
For B1, the binding result is “no binding”.
